1 substance from patent US20070148124A1, “Cellulose and acrylic based polymers and the use thereof for the treatment of infectious diseases” (priority 2004, published 2007) can be followed below.

For series [1], the system named is P4-CCR5 cells.
The subject of series [2] is MAGI-R5 or HeLa CD4 LTR β-gal cells.

For Dextran sulfate [DS], in series [1], the “CC50 (wt. %)” value is recorded as above 1 wt. %. For the same substance, the CC50 (as a rule, the concentration that lowers cell viability or growth by half) in series [2] was above 2000 µg/mL.
